Source: PubChem BioAssay AID1259414 (Drosophila RNAi Screening Center, 2018)
In all, the deposit lists about 24,000 reagents; this is an unselected part of those that have a named target and a result. Over the whole deposit, about 1,210 (5%) got an active call. 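Inactive calls also include excluded dsRNAs with several or no targets, genes unexpressed in JW18, and well A1, regardless of score.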 Entries without a mark were called inactive. A plus sign joins genes that one reagent is predicted to hit. Reagent sequences are not shown.

- Screen: 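Host factors increasing or decreasing Wolbachia levels in cultured fly cells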 (primary screen)
- Cell system: Drosophila JW18 cells infected with Wolbachia
- Reagent: long dsRNA against Drosophila genes, 0.25 µg dsRNA per well of a 384-well plate
- Time to read-out: 5 days
- Treatment: cells persistently infected with Wolbachia before knock-down; no added drug
- Measured: 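Automated imaging of bacterial rRNA staining divided by host cell count, reported as plate-normalised robust z-score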
- Scale: Wolbachia per cell robust z: higher = more Wolbachia per host cell than the plate typical
- Active means: 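Hit when robust z is 1.5 or more, or -1.5 or less, in at least two of three replicates; excludes dsRNAs with several or no targets, genes not expressed in JW18 and well A1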

For CG31948 (GeneID 326178) [DRSC00740], how do the results read?
Wolbachia per cell robust z, rep 1: -0.398; Wolbachia per cell robust z, rep 2: -1.16; Wolbachia per cell robust z, rep 3: 0.293

How did the screen score CG11825 (GeneID 36099) [DRSC06090]?
Wolbachia per cell robust z, rep 1: 1.25 (active); Wolbachia per cell robust z, rep 2: -5.27; Wolbachia per cell robust z, rep 3: -3.85

For CG11825 (GeneID 36099) [DRSC27780], how do the results read?
Wolbachia per cell robust z, rep 1: 0.935; Wolbachia per cell robust z, rep 2: -0.152; Wolbachia per cell robust z, rep 3: -0.262

For CG30095 (GeneID 246453) [DRSC07175], what does the deposit list?
Wolbachia per cell robust z, rep 1: 0.109; Wolbachia per cell robust z, rep 2: -0.509; Wolbachia per cell robust z, rep 3: 0.203

What is on record for Fit2 (GeneID 39907) [DRSC10908]?
Wolbachia per cell robust z, rep 1: 1.05; Wolbachia per cell robust z, rep 2: 0.366; Wolbachia per cell robust z, rep 3: -2.24

Which result is listed for CG31229 (GeneID 318636) [DRSC13309]?
Wolbachia per cell robust z, rep 1: -0.287; Wolbachia per cell robust z, rep 2: -0.315; Wolbachia per cell robust z, rep 3: -0.0303

For CG1951 (GeneID 43423) [DRSC15403], what does the deposit list?
Wolbachia per cell robust z, rep 1: -4.19; Wolbachia per cell robust z, rep 2: -0.128; Wolbachia per cell robust z, rep 3: 1.44

With Corin (GeneID 35691) [DRSC06818], what does the deposit list?
Wolbachia per cell robust z, rep 1: 0.301; Wolbachia per cell robust z, rep 2: 1.29; Wolbachia per cell robust z, rep 3: 1.17

For Corin (GeneID 35691) [DRSC28927], how do the results read?
Wolbachia per cell robust z, rep 1: 0.742; Wolbachia per cell robust z, rep 2: -0.419; Wolbachia per cell robust z, rep 3: 0.123

How did the screen score Socs44A (GeneID 35786) [DRSC06828]?
Wolbachia per cell robust z, rep 1: -1.67; Wolbachia per cell robust z, rep 2: -0.117; Wolbachia per cell robust z, rep 3: -1.33

With Tsp42Ek (GeneID 35621) [DRSC06187], what does the deposit list?
Wolbachia per cell robust z, rep 1: 0.726; Wolbachia per cell robust z, rep 2: 0.781; Wolbachia per cell robust z, rep 3: -7.35

With mxt (GeneID 33686) [DRSC25001], what was measured?
Wolbachia per cell robust z, rep 1: 0.619; Wolbachia per cell robust z, rep 2: -0.027; Wolbachia per cell robust z, rep 3: 0.0268

With mRpS34 (GeneID 39809) [DRSC09918], what was measured?
Wolbachia per cell robust z, rep 1: 0.26; Wolbachia per cell robust z, rep 2: 0.296; Wolbachia per cell robust z, rep 3: 0.531

What did the screen give for mRpS34 (GeneID 39809) [DRSC29248]?
Wolbachia per cell robust z, rep 1: 0.622; Wolbachia per cell robust z, rep 2: -0.524; Wolbachia per cell robust z, rep 3: -1.03

With Acsf2 (GeneID 33766) [DRSC02172], how do the results read?
Wolbachia per cell robust z, rep 1: 1.02; Wolbachia per cell robust z, rep 2: -3.37; Wolbachia per cell robust z, rep 3: 1.24

With Acsf2 (GeneID 33766) [DRSC27832], what does the deposit list?
Wolbachia per cell robust z, rep 1: -0.401; Wolbachia per cell robust z, rep 2: -1.53; Wolbachia per cell robust z, rep 3: -0.453

With CG13285 (GeneID 38623) [DRSC09960], what was measured?
Wolbachia per cell robust z, rep 1: -0.385; Wolbachia per cell robust z, rep 2: -1.16; Wolbachia per cell robust z, rep 3: 0.459

For CG1368 (GeneID 32361) [DRSC19537], what was measured?
Wolbachia per cell robust z, rep 1: -0.0497; Wolbachia per cell robust z, rep 2: -0.106; Wolbachia per cell robust z, rep 3: -0.0931

Which result is listed for CG1368 (GeneID 32361) [DRSC25431]?
Wolbachia per cell robust z, rep 1: -0.256; Wolbachia per cell robust z, rep 2: -0.526; Wolbachia per cell robust z, rep 3: -0.91

How did the screen score CG1368 (GeneID 32361) [DRSC38997]?
Wolbachia per cell robust z, rep 1: -0.503; Wolbachia per cell robust z, rep 2: 1.26; Wolbachia per cell robust z, rep 3: -0.171

What did the screen give for mei-P26 (GeneID 45775) [DRSC23049]?
Wolbachia per cell robust z, rep 1: -2.35; Wolbachia per cell robust z, rep 2: 0.0835; Wolbachia per cell robust z, rep 3: 0.594

With CG1812 (GeneID 33049) [DRSC20557], what was measured?
Wolbachia per cell robust z, rep 1: -0.0724; Wolbachia per cell robust z, rep 2: 0.377; Wolbachia per cell robust z, rep 3: 0.247

For CG1812 (GeneID 33049) [DRSC26769], what does the deposit list?
Wolbachia per cell robust z, rep 1: 0.154; Wolbachia per cell robust z, rep 2: -0.785; Wolbachia per cell robust z, rep 3: 1.05

What is on record for Polr2D + Ada2a [DRSC40781]?
Wolbachia per cell robust z, rep 1: 0.37; Wolbachia per cell robust z, rep 2: 1.19; Wolbachia per cell robust z, rep 3: 1.27

For CG6204 (GeneID 42877) [DRSC15991], what was measured?
Wolbachia per cell robust z, rep 1: 0.871; Wolbachia per cell robust z, rep 2: 0.82; Wolbachia per cell robust z, rep 3: 4.04

How did the screen score CG4911 (GeneID 39043) [DRSC10456]?
Wolbachia per cell robust z, rep 1: -0.614; Wolbachia per cell robust z, rep 2: 0.376; Wolbachia per cell robust z, rep 3: 0.303

How did the screen score CG42537 (GeneID 8674074) [DRSC12519]?
Wolbachia per cell robust z, rep 1: -0.595; Wolbachia per cell robust z, rep 2: 0.681; Wolbachia per cell robust z, rep 3: 0.267

With Tango9 (GeneID 41450) [DRSC14173], what was measured?
Wolbachia per cell robust z, rep 1: 0.82; Wolbachia per cell robust z, rep 2: 1.16; Wolbachia per cell robust z, rep 3: 1.41

Which result is listed for SamDC (GeneID 34396) [DRSC03429]?
Wolbachia per cell robust z, rep 1: -0.744; Wolbachia per cell robust z, rep 2: -0.778; Wolbachia per cell robust z, rep 3: -8.06

How did the screen score CG42637 + Gyc76C [DRSC11180]?
Wolbachia per cell robust z, rep 1: 1.07; Wolbachia per cell robust z, rep 2: 0.237; Wolbachia per cell robust z, rep 3: 0.322

2 consecutive entries from above:
CG11825 (GeneID 36099) [DRSC27780] → Wolbachia per cell robust z, rep 1 = 0.935; Wolbachia per cell robust z, rep 2 = -0.152; Wolbachia per cell robust z, rep 3 = -0.262
CG30095 (GeneID 246453) [DRSC07175] → Wolbachia per cell robust z, rep 1 = 0.109; Wolbachia per cell robust z, rep 2 = -0.509; Wolbachia per cell robust z, rep 3 = 0.203
